The record followed here is patent US5023359A, “Use of organic salts of copper for the treatment of honeybee's parasitic diseases” (priority 1990, dated 1991).

A short description of data set [1]: Comparative content of copper in the honey in the bodies of the hives, copper gluconate vs copper sulphate. The conditions noted are these: N = 4. Type of data set: in vivo.
The nature of data set [2]: Residual amounts of copper in honey after administration (atomic absorption), 64 hives. Type of data set: in vivo. To be noted: after 7 ± 1 months.
Setting [3] is: 2,50 g total amount per hive, N = 21.
Setting [4] is: 3,00 g total amount per hive, N = 6.

As to `O=S(=O)([O-])[O-].[Cu+2]` [copper sulphate, reference compound], the “Content in copper in the honey in the bodies of the hives” value in data set [1] (Table B, 1,25 g total per hive (0,319 g mineral copper)) is recorded as 4,37 ± 2,89 mg/kg; in data set [1] (Table B, 2,00 g total per hive (0,510 g mineral copper)), 8,03 ± 10,46 mg/kg.
With Copper gluconate, the “Content in copper in the honey in the bodies of the hives” value in data set [1] (Table A, 1,35 g total per hive (0,189 g mineral copper)) was 0,686 ± 0,084 mg/kg; in data set [1] (Table A, 3,38 g total per hive (0,473 g mineral copper)), 0,836 ± 0,296 mg/kg; in data set [1] (Table A, 6,75 g total per hive (0,945 g mineral copper)), 0,656 ± 0,014 mg/kg. For the same compound, the “Residual copper in honey, super” value was 2,7 ± 1,7 mg/kg in data set [2] (1,25 g total amount per hive, N = 19); 0,8 ± 1,0 mg/kg in data set [2] (setting [3]); 0,6 ± 0,1 mg/kg in data set [2] (setting [4]). Moreover, the “Residual copper in honey, body of the hive” value is 5,3 ± 2,5 mg/kg in data set [2] (1,25 g total amount per hive, N = 28); 1,0 ± 0,25 mg/kg in data set [2] (setting [3]); 1,6 ± 1,0 mg/kg in data set [2] (setting [4]).
